Results of unrelated studies side by side (data: NIAID ChemDB).

Shared fields: whole-cell or culture tests; agent: HIV-2; measure: EC50

ECn is the concentration giving n% inhibition of infection, replication or growth. Neighbouring rows are from separate reports. Blank or dashed fields: not listed here.

compound | strain | method | result
Cc1c(Cc2cccc3ccccc23)nc(SCc2cn(Cc3ccccc3C#N)nn2)[nH]c1=O | ROD | MTT | >123 µM
Cc1nnc(C(C)C)n1C1C[C@H]2CC[C@@H](C1)N2CC[C@H](NC(=O)C1CCC(F)(F)CC1)c1ccccc1 | X4 | - | >1000 nM
Cn1c(=O)cc(Oc2nc(Nc3ccc(C#N)cc3)nc(Sc3nc4ccccc4s3)n2)c2ccccc21 | ROD | MTT | >72.78 µg/mL
O=C1CS(=O)(=O)OC12C1CC3CC(C1)CC2C3 | - | - | >200 µg/mL
O=C(NCc1ccc(F)cc1)c1nc(N2CCCCS2(=O)=O)c2cccnc2c1O | EHO | β-galactosidase | 0.011 µM
Cn1c(=O)cc(Oc2nc(Nc3ccc(C#N)cc3)nc(Nc3nc4ccc(Br)cc4s3)n2)c2ccccc21 | ROD | MTT | >14.5 µg/mL
N#Cc1ccccc1Cn1cc(CSc2nc(Cc3cccc4ccccc34)cc(=O)[nH]2)nn1 | ROD | MTT | >105 µM
Cn1c(=O)cc(Oc2nc(Nc3ccc(C#N)cc3)nc(Nc3nc4ccc(Cl)cc4s3)n2)c2ccccc21 | ROD | MTT | >2.19 µg/mL
CCCCCCCCCCCCCCCOP(=O)(OCc1ccc(OC(=O)CCCC)cc1)OP(=O)(O)OP(=O)(O)OC[C@@H]1C=C[C@H](n2cc(C)c(=O)[nH]c2=O)O1 | - | - | 0.14 µM
Cn1c(=O)cc(Oc2nc(Nc3ccc(C#N)cc3)nc(Nc3nc4ccc(F)cc4s3)n2)c2ccccc21 | ROD | MTT | >2.26 µg/mL
c1ccc(CNCc2ccc(CN3CCCNCCNCCCNCC3)cc2)nc1 | ROD | - | 0.01 µg/mL
O=C(NCc1ccc(F)cc1)c1nc(N2CCCCS2(=O)=O)c2cccnc2c1O | - | - | <0.008 µM
NC(=O)c1ccc(Cn2cc(CSc3nc(Cc4cccc5ccccc45)c(I)c(=O)[nH]3)nn2)cc1 | ROD | MTT | >88.01 µM
Cn1c(=O)cc(Oc2nc(Nc3ccc(C#N)cc3)nc(Nc3ccccn3)n2)c2ccccc21 | ROD | MTT | >74.1 µg/mL
O=c1cc(Cc2c(Cl)cccc2Cl)nc(SCc2cn(Cc3ccccc3)nn2)[nH]1 | ROD | MTT | >273 µM
Cc1cn([C@H]2C[C@H](N=[N+]=[N-])[C@@H](CO)O2)c(=O)[nH]c1=O | MS | cytopathic effect / XTT | 0.008 µM

Repeating the final 2 entries:

compound | strain | method | result
O=c1cc(Cc2c(Cl)cccc2Cl)nc(SCc2cn(Cc3ccccc3)nn2)[nH]1 | ROD | MTT | >273 µM
Cc1cn([C@H]2C[C@H](N=[N+]=[N-])[C@@H](CO)O2)c(=O)[nH]c1=O | MS | cytopathic effect / XTT | 0.008 µM